## Library screen at single concentrations

The values are deposited in ChEMBL (CHEMBL3988442, “University of Dundee, Small-Polar-MMV Screening Library” (2021)).

Mtb glucose medium: 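Growth of Mycobacterium tuberculosis over 3 days (7H9 medium with glucose and tyloxapol); the read-out is not stated. Concentration: 500 µM. Direction is inferred from retests: higher values go with more growth inhibition. Of about 18,000 compounds tested this way, about 1,400 (7.9%) reached 50% or more in at least one test.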
Mtb cholesterol medium: 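Whole-cell growth test on Mycobacterium tuberculosis, read after 4 days in a medium based on cholesterol and the lipid DPPC; the read-out is not stated. Tested at 500 µM. Direction is inferred from retests: higher values go with more growth inhibition. About 18,000 compounds were tested under these conditions; 5% (about 900) showed 50% or more at least once.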

The filed quantity is “Percent Effect” (%). The controls that fix the scale are not given in the record; negative values are as filed. This is part of a subset picked to be rich in strong results. A dash means the value is not listed here; it may have been measured.

SMILES | Mtb glucose medium | Mtb cholesterol medium
CCS(=O)(=O)Cc1cc(=O)n(C)c(=O)n1C | -9.365% | -
CN(CC(=O)N(CCC#N)CC1CCC1)S(C)(=O)=O | 7.2% | -
CC(=O)Nc1nc(C(=O)NC2(C)CCS(=O)(=O)C2)cs1 (stereo unspecified) | -5.027% | -
CC(C)(C)OC(=O)NCCC(=O)NCc1cccnc1 | -1.443% | -
COC(C)(C)c1nsc(N)n1 | 7.525% | -
NCc1ccccc1OCCN1CCOCC1 | 27.37% | -
C[n+]1ccn(C(=O)N2CCCC2)c1.[I-] | 19.01% | -
Cc1ccc(C(=O)Nc2cnn(C)c2)cn1 | - | 62.06%
CSCC(C)(O)CNC(=O)Nc1cc(C)on1 (stereo unspecified) | 0.7284% | -
O=C(Nc1nncs1)NC1CCNCC1 | -2.188% | 8.094%
Cc1noc(OCC(=O)N(C)C2CC2)n1 | 0.7503% | -
CCn1nc(C(C)C)cc1C(=O)NC(C)COC (stereo unspecified) | 21.1% | -
CCOCCC1(C(=O)NC2=NCCS2)CCCC1 | 24.67% | -
Cc1ccc(S(=O)(=O)CC(=O)NCc2ccco2)cc1 | 36.25% | -
NCc1ccc(N2CCC(O)CC2)cc1 | - | 9.731%
Cc1noc(C)c1CN1CCNC(=O)C1c1cccs1 (stereo unspecified) | 16.56% | -
CCC(=O)N1CCN(Cc2ccc(Br)cn2)CC1 | 30.03% | -
COC(=O)c1cccc(NC(=O)c2n[nH]cc2I)c1 | - | 18.56%
N[C@@H]1CC[C@@H](NC(=O)c2cc3sccc3[nH]2)C1 | 53.4% | 26.3%
COc1ccc(NC(=O)C(C)n2cccn2)cn1 (stereo unspecified) | - | -271.2%
CC1(NC(=O)CSc2ccccn2)CCS(=O)(=O)C1 (stereo unspecified) | - | -1.343%
COCCN(C)CCNC(=O)c1cccc(I)c1 | 36.4% | -
NCc1cc(Br)c2c(c1)OCO2 | -8.937% | -
COCC(C)(O)C(=O)N(C)Cc1ccccc1 (stereo unspecified) | 5.638% | -
NCc1ccc(N2CCOCC2)c(F)c1 | 14.61% | -
NCC(=O)N1CCCC(CCc2ccccc2F)C1 (stereo unspecified) | 74.68% | 66.6%
CCCOc1ccc(NS(=O)(=O)N(C)C)cc1Cl | 17.65% | 90.6%
CC1Cc2ccccc2N1S(C)(=O)=O (stereo unspecified) | 32.82% | 15.59%
CCCNC(=O)CN(C)Cc1ccnc(N(C)C)n1 | - | 33%
CCn1nnnc1SCc1cc(C#N)ccc1F | 70.1% | 70.7%
COc1ccccc1CNC(=O)CC(F)(F)F | - | -7.327%
CCOc1ccccc1CCC(N)=O | 9.094% | -
Cc1nc(CN2CC3(CCNCC3)CCC2=O)cs1 | 5.85% | -
OCCCc1cccc(NCc2csnn2)c1 | 34.38% | -
CCN(CC)c1ncccc1CNC(=O)C1CCC1 | 26.68% | -
Cn1nc(-c2cc(F)cc(F)c2)cc1N | 32.73% | -
NS(=O)(=O)C1CCCOC1 (stereo unspecified) | -8.893% | -
O=C(CSc1ccncc1)NCCn1cccc1 | - | 15.84%
CCOC(C)(C)C(=O)NC(CC)Cn1ccnc1 (stereo unspecified) | -5.779% | -
CCN(CC)S(=O)(=O)c1cccc(NCC(=O)OC)c1 | 18.33% | -2.883%
CN(Cc1ccc2c(c1)OCO2)C(=O)Cc1cccs1 | 77.2% | 82.63%
CC(=Cc1ccccc1)CN1CCC(C(N)=O)C1 (stereo unspecified) | 16.58% | -
Cc1cccn(CC(=O)NCc2cccs2)c1=O | 2.294% | -
O=C(NCCc1noc(C(F)(F)F)n1)c1ccnnc1 | - | 14.72%
Cc1c(Br)cccc1S(=O)(=O)NCCN | 64.6% | -
CN1C(=O)C[C@H](CN)[C@H]1c1cnn(C)c1 | 9.961% | -
Cc1nn(C)c(C)c1CC(=O)N1CCCC(C(N)=O)C1 (stereo unspecified) | - | -10.57%
CC(=O)N1CCc2onc(-c3ccc(F)c(F)c3)c2C1 | 51.13% | 53.05%
Cc1nnc(CCNC(=O)C(O)CC(C)C)s1 (stereo unspecified) | - | -0.3328%
C[C@H](N)c1ccc(Cl)s1 | 35.47% | 23.87%
O=C(NCCc1cn[nH]c1)C(O)c1ccc(Cl)cc1 (stereo unspecified) | 0.1695% | -
CN(C)c1noc(C2CCCN2)n1 (stereo unspecified) | -4.582% | -
NCc1nc(-c2ccc(OC(F)(F)F)cc2)no1 | 76.6% | 84.27%
CNC(=O)C1(c2cccc(Cl)c2)CC1 | 2.802% | -
OCC1(NCC2CC2)CCNCC1 | -12.67% | -
CCn1cnnc1C1CNCCO1 (stereo unspecified) | - | -2.905%
CC(=O)N1CCNCC12CCCCC2 | 12.59% | -
CCS(=O)(=O)CC(C)NC1CCN(C(C)C)CC1 (stereo unspecified) | - | -3.454%
CC(NC(=O)CCc1ccc(O)cc1)c1cnn(C)c1 (stereo unspecified) | - | 0.1406%
COc1cccc(NC(=O)CN2CCN(C)CC2)c1 | - | 9.115%
Cn1nc2n(c1=O)CCN(S(C)(=O)=O)CC2 | -4.857% | -
CCCC(C)CS(=O)(=O)NCc1ccncc1 (stereo unspecified) | 69.45% | 59.84%
CC(N)C(=O)Nc1ccc(Cl)cc1 (stereo unspecified) | 24.08% | -
O=S(=O)(CCN1CC[C@@H](O)C1)c1cccc(Br)c1 | 93.1% | 87.19%
CC1CCCN1C1CCN(CCNS(C)(=O)=O)CC1 (stereo unspecified) | - | 31.72%
CCNc1ncc(C(=O)N(C)Cc2ccsc2)cn1 | 57.77% | -
CN(CC1CCOCC1)C(=O)CSc1nnc(N)s1 | 9.764% | -0.8327%
O=C(CCNCCO)c1ccccc1 | 97.02% | 99.82%
CN(C)S(=O)(=O)CCCN1CCC1c1ccc(F)cc1 (stereo unspecified) | 11.61% | -
O=C(Cc1cn2ccsc2n1)NCC1CCC1 | 82.37% | 74.9%
COc1ccc(NC(=O)NC2CCN(C)CC2)cc1 | -2.561% | -
Cc1ccoc1C(=O)N1CCCN(CC(N)=O)CC1 | - | -0.1776%
CCc1ccc(C(=O)NCCCN2CCCC2=O)s1 | -6.704% | -
O=C(c1ccoc1)N1CCC(NC2CCSCC2)CC1 | -11.14% | -
CC(C)(C)CC(=O)NC1(C)CCS(=O)(=O)C1 (stereo unspecified) | - | 0.799%
COCCOc1ccc(C(=O)N2CCOCC2)cc1Br | 20.71% | -
Cc1ccc2c(n1)OCCN2C(=O)c1cnn(C)c1C | - | 9.044%

The first 9 entries again:

- CCS(=O)(=O)Cc1cc(=O)n(C)c(=O)n1C : Mtb glucose medium: -9.365%
- CN(CC(=O)N(CCC#N)CC1CCC1)S(C)(=O)=O : Mtb glucose medium: 7.2%
- CC(=O)Nc1nc(C(=O)NC2(C)CCS(=O)(=O)C2)cs1 (stereo unspecified) : Mtb glucose medium: -5.027%
- CC(C)(C)OC(=O)NCCC(=O)NCc1cccnc1 : Mtb glucose medium: -1.443%
- COC(C)(C)c1nsc(N)n1 : Mtb glucose medium: 7.525%
- NCc1ccccc1OCCN1CCOCC1 : Mtb glucose medium: 27.37%
- C[n+]1ccn(C(=O)N2CCCC2)c1.[I-] : Mtb glucose medium: 19.01%
- Cc1ccc(C(=O)Nc2cnn(C)c2)cn1 : Mtb cholesterol medium: 62.06%
- CSCC(C)(O)CNC(=O)Nc1cc(C)on1 (stereo unspecified) : Mtb glucose medium: 0.7284%